A mixed list of measured activities; the numbers were collected in NIAID ChemDB.

All rows: enzyme or target tests

Conditions beyond the fields shown may differ between rows.

SMILES	protein	mutations	strain or isolate	species	tested at	read-out	method	value
O=C(/C=C/c1ccccc1)Nc1nnc(NCCN2CCOCC2)s1	Polymerase	-	-	Human cytomegalovirus	-	IC50	-	>25 µM
Cc1ccc(C=C2SC(=O)N(CC(=O)N3CCN(c4ccccc4)CC3)C2=O)cc1	Falcipain-2	-	-	Plasmodium falciparum	-	IC50	fluorescence	45.71 µM
CC1S/C(=C\c2ccc(Cl)c(Cl)c2)C(=O)N1S(=O)(=O)c1ccc(F)cc1	NS5B polymerase	-	-	Hepatitis C virus	-	IC50	-	≤30 µM
O=C(c1ccccc1)N1C[C@H](CN2CCC(c3ccccc3)CC2)[C@@H](c2ccccc2)C1	CCR5	CCR5-E283A	-	-	-	IC50	radiometric	>10 µM
Nc1nc(=S)c2[nH]cnc2[nH]1	Phosphoribosyltransferase	-	RH	Toxoplasma gondii	-	Ki	-	6 µM
O=C(CN1C(=O)SC(=Cc2ccccc2OC(F)(F)F)C1=O)N1CCN(c2ccccc2)CC1	Falcipain-2	-	-	Plasmodium falciparum	-	IC50	fluorescence	35.28 µM
NC(=S)NS(=O)(=O)c1ccc(N)cc1	DHPS	-	-	Pneumocystis carinii	-	IC50	-	0.022 µM
O=C(O)C(F)(F)P(=O)(O)O	DNA polymerase	-	-	Epstein-Barr virus	100 µM	inhibition	-	77%
CC[C@H]1C(=O)Nc2ccc(F)cc2N1C(=O)OC(C)C	Reverse transcriptase	RT-N137K	-	HIV	-	fold resistance	nucleotide incorporation / radiometric	1.8
NC(=O)c1cnccn1	Uracil phosphoribosyltransferase	-	RH	Toxoplasma gondii	-	IC50	-	>2000 µM
CC(C)C(N)B(O)O	Aminopeptidase	-	-	Cryptosporidium parvum	0.001 µM	inhibition	-	81%
O=C(O)/C=C/c1cccc(-c2nc(C(=O)O)c(O)c(=O)[nH]2)c1	HCV polymerase	-	-	Hepatitis C virus	-	IC50	-	<100 µM
Nc1ccc(S(=O)(=O)Nc2ncccn2)cc1	DHPS	-	-	Pneumocystis carinii	-	IC50	-	0.19 µM
CC(C)c1cc(C(C)C)c(C(=O)Nc2nnc(NCCN3CCCCC3)s2)c(C(C)C)c1	Polymerase	-	-	Human cytomegalovirus	-	IC50	-	>25 µM
CNN1C(=O)/C(=C\c2ccc(Cl)c(Cl)c2)SC1=S	NS5B polymerase	-	-	Hepatitis C virus	-	IC50	-	≤30 µM
Nc1nccc(=O)[nH]1	Phosphoribosyltransferase	-	RH	Toxoplasma gondii	-	Ki	-	616 µM
COc1cc(OC)c(C(=O)Nc2ccsc2-c2nc(C(=O)O)c(O)c(=O)[nH]2)cc1OC	HCV polymerase	-	-	Hepatitis C virus	-	IC50	-	<25 µM
NC(=O)NS(=O)(=O)c1ccc(N)cc1	DHPS	-	-	Pneumocystis carinii	-	IC50	-	0.3 µM
CO[P@](=O)(c1cc(C)cc(/C=C/C#N)c1)c1c(C(N)=O)[nH]c2ccc(Cl)cc12	Reverse transcriptase	M184V	-	HIV	-	IC50	-	0.17 µM
CC(=O)N[C@@H](CC(C)C)C(=O)N[C@@H](CC(C)C)C(=O)N[C@H](C=O)CCCN=C(N)N	Aminopeptidase	-	-	Cryptosporidium parvum	1000 µM	inhibition	-	28%
S=c1cc[nH]cc1	Uracil phosphoribosyltransferase	-	RH	Toxoplasma gondii	-	Ki	-	90 µM
COc1ccc(C=C2SC(=O)N(CC(=O)N3CCN(c4ccccc4)CC3)C2=O)c(OC)c1	Falcipain-2	-	-	Plasmodium falciparum	-	IC50	fluorescence	>50 µM
CC(NC(=O)Nc1cccc(-c2nc(C(=O)O)c(O)c(=O)[nH]2)c1)c1ccc2c(c1)OCCO2	HCV polymerase	-	-	Hepatitis C virus	-	IC50	-	<100 µM
Nc1ccc(S(=O)(=O)Nc2nccs2)cc1	DHPS	-	-	Pneumocystis carinii	-	IC50	-	0.013 µM
CCCCS(=O)(=O)NN1C(=O)/C(=C\c2ccc(Cl)c(Cl)c2)SC1=S	NS5B polymerase	-	-	Hepatitis C virus	-	IC50	-	≤30 µM
O=C(C1CCCCC1)N1C[C@H](CN2CCC(c3ccccc3)CC2)[C@@H](c2ccccc2)C1	CCR5	-	-	-	-	IC50	radiometric	0.023 µM
NC(Cc1ccccc1)B(O)O	Aminopeptidase	-	-	Cryptosporidium parvum	0.001 µM	inhibition	-	79%
O=C(O)C(Br)(Br)P(=O)(O)O	DNA polymerase	-	-	Epstein-Barr virus	100 µM	inhibition	-	34%
CC(C)(C)OC(=O)N[C@H](C(=O)Nc1ccsc1-c1nc(C(=O)O)c(O)c(=O)[nH]1)c1ccccc1	HCV polymerase	-	-	Hepatitis C virus	-	IC50	-	<25 µM
COc1cc(OC)c(C=C2SC(=O)N(CC(=O)N3CCN(c4ccc(C#N)cc4)CC3)C2=O)c(OC)c1	Falcipain-2	-	-	Plasmodium falciparum	-	IC50	fluorescence	12.24 µM
CN(CC(C)(CCN1CCC(N(CCO)C(=O)OCc2ccc([N+](=O)[O-])cc2)CC1)c1ccsc1)S(=O)(=O)c1ccccc1	CCR5	CCR5-Y108A	-	-	-	IC50	radiometric	0.75 µM
O=C(Nc1nnc(NC2CCN(Cc3ccccc3)CC2)s1)c1ccc(S(=O)(=O)F)cc1	Polymerase	-	-	Human cytomegalovirus	-	IC50	-	>25 µM
S=c1nccc(Oc2ccccc2)[nH]1	Uracil phosphoribosyltransferase	-	RH	Toxoplasma gondii	-	IC50	-	>2000 µM
O=C1/C(=C\c2ccc3c(c2)Cc2ccccc2-3)SC(=S)N1NS(=O)(=O)c1ccccc1	NS5B polymerase	-	-	Hepatitis C virus	-	IC50	-	≤30 µM
Cc1cn([C@H]2C=C[C@@H](COP(=O)(O)OP(=O)(O)OP(=O)(O)O)O2)c(=O)[nH]c1=O	Reverse transcriptase	RT-N137T	-	HIV	-	IC50	nucleotide incorporation / radiometric	1.7 µM
O=[N+]([O-])c1cc(S(=O)(=O)c2ccc(F)c([N+](=O)[O-])c2)ccc1F	DHPS	-	-	Pneumocystis carinii	-	IC50	-	>10 µM
CCOc1ccc2ccccc2c1C(=O)Nc1nnc(NCC2CCCCC2)s1	Polymerase	-	-	Human cytomegalovirus	-	IC50	-	>25 µM
O=c1cc[nH]c(=O)[nH]1	Phosphoribosyltransferase	-	RH	Toxoplasma gondii	-	Ki	-	699 µM
O=C(Nc1cccc(-c2nc(C(=O)O)c(O)c(=O)[nH]2)c1)NC1CC1c1ccccc1	HCV polymerase	-	-	Hepatitis C virus	-	IC50	-	<100 µM
COc1cccc(CN2C(=O)SC(=Cc3c(OC)cc(OC)cc3OC)C2=O)c1	Falcipain-2	-	-	Plasmodium falciparum	-	IC50	fluorescence	>50 µM
COc1cc(O)c2c(c1)C(=O)c1c(O)c3c(c(OC)c1C2=O)[C@H](O)[C@@H](O)c1cc(C)c(C(=O)N[C@H](C)C(=O)O)c(O)c1-3	Glucosidase	-	-	Actinomadura verrucosospora	-	IC50	-	62 µg/mL
O=C(O)C(Cl)P(=O)(O)O	DNA polymerase	-	-	Herpes simplex virus 2	100 µM	inhibition	-	96%
O=C(O)c1nc(-c2sccc2NC(=O)C2CCN(c3ncccn3)CC2)[nH]c(=O)c1O	HCV polymerase	-	-	Hepatitis C virus	-	IC50	-	<25 µM
COc1ccc(/C=C2/SC(=S)N(NS(=O)(=O)c3ccccc3)C2=O)cc1C	NS5B polymerase	-	-	Hepatitis C virus	-	IC50	-	≤30 µM
Cc1cc2c(c(O)c1C(=O)NC(C)C(=O)O)-c1c(O)c3c(c(O)c1C(O)C2O)C(=O)c1c(O)cc(O)cc1C3=O	Glucosidase	-	-	Actinomadura verrucosospora	-	IC50	-	>100 µg/mL
O=C(O)c1ccc(NC(=S)Nc2ccc(S(=O)(=O)Nc3ccccn3)cc2)cc1	DHPS	-	-	Pneumocystis carinii	-	IC50	-	5.9 µM
CC(C)=CCOc1cc(NC(=S)c2ccoc2C)ccc1Cl	Reverse transcriptase	RT-N137K	-	HIV	-	fold resistance	nucleotide incorporation / radiometric	0.36
COc1cc(NS(=O)(=O)c2ccc(N)cc2)nc(OC)n1	DHPS	-	-	Pneumocystis carinii	-	IC50	-	0.025 µM
O=P(O)(O)C(F)(Br)P(=O)(O)O	DNA polymerase	-	-	Herpes simplex virus 2	-	IC50	-	>100 µM
Cc1cc(SC2=C(O)C[C@@](CCc3ccc(O)cc3)(C(C)C)OC2=O)c(C(C)(C)C)cc1CO	Cytochrome P450 3A4	-	-	-	1 µM	inhibition	-	9%
CC(C)Cn1c(=O)n(C)c(=O)c2[nH]cnc21	Phosphoribosyltransferase	-	RH	Toxoplasma gondii	-	IC50	-	>900 µM
O=C(Nc1ccsc1-c1nc(C(=O)O)c(O)c(=O)[nH]1)OCc1cccc(OCc2ccccc2)c1	HCV polymerase	-	-	Hepatitis C virus	-	IC50	-	<25 µM
CS(=O)(=O)c1cc(=O)[nH]c(=O)[nH]1	Uracil phosphoribosyltransferase	-	RH	Toxoplasma gondii	-	IC50	-	>2000 µM
O=c1[nH]c2nc[nH]c(=O)c2[nH]1	Phosphoribosyltransferase	-	RH	Toxoplasma gondii	900 µM	inhibition	-	<10%
O=C(O)C(Br)P(=O)(O)O	DNA polymerase	-	-	Herpes simplex virus 2	100 µM	inhibition	-	88%
Cc1cc2c(c(O)c1C(=O)O)-c1c(O)c3c(c(O)c1C[C@H]2O)C(=O)c1c(O)cc(O)cc1C3=O	Glucosidase	-	-	Actinomadura verrucosospora	-	IC50	-	3 µg/mL
CCOC(=O)c1c[nH]c(=S)[nH]c1=O	Uracil phosphoribosyltransferase	-	RH	Toxoplasma gondii	-	Ki	-	1200 µM
O=P(O)(O)C(F)P(=O)(O)O	DNA polymerase	-	-	Epstein-Barr virus	-	IC50	-	>100 µM
CC(C)(C)OC(=O)NC(C(=O)Nc1ccsc1-c1nc(C(=O)O)c(O)c(=O)[nH]1)c1cccc2ccccc12	HCV polymerase	-	-	Hepatitis C virus	-	IC50	-	<25 µM
O=C(O)C(Cl)(Cl)P(=O)(O)O	DNA polymerase	-	-	Epstein-Barr virus	-	IC50	-	>100 µM
S=c1cccc[nH]1	Uracil phosphoribosyltransferase	-	RH	Toxoplasma gondii	-	Ki	-	570 µM
CC(C)CC(N)B(O)O	Aminopeptidase	-	-	Cryptosporidium parvum	-	IC50	-	<0.001 µM
C=C1NC(OC)=C/C(=N/S(=O)(=O)c2ccc(N)cc2)N1	DHPS	-	-	Pneumocystis carinii	-	IC50	-	0.094 µM
O=C(O)C(Cl)(Br)P(=O)(O)O	DNA polymerase	-	-	Herpes simplex virus 2	-	IC50	-	>100 µM
S=c1[nH]c(=S)[nH]c(=S)[nH]1	Uracil phosphoribosyltransferase	-	RH	Toxoplasma gondii	-	Ki	-	110 µM
O=C(CCc1ccccc1)Nc1ccsc1-c1nc(C(=O)O)c(O)c(=O)[nH]1	HCV polymerase	-	-	Hepatitis C virus	-	IC50	-	<25 µM

Repeating the first 7 entries:

SMILES,protein,mutations,strain or isolate,species,tested at,read-out,method,value
O=C(/C=C/c1ccccc1)Nc1nnc(NCCN2CCOCC2)s1,Polymerase,-,-,Human cytomegalovirus,-,IC50,-,>25 µM
Cc1ccc(C=C2SC(=O)N(CC(=O)N3CCN(c4ccccc4)CC3)C2=O)cc1,Falcipain-2,-,-,Plasmodium falciparum,-,IC50,fluorescence,45.71 µM
CC1S/C(=C\c2ccc(Cl)c(Cl)c2)C(=O)N1S(=O)(=O)c1ccc(F)cc1,NS5B polymerase,-,-,Hepatitis C virus,-,IC50,-,≤30 µM
O=C(c1ccccc1)N1C[C@H](CN2CCC(c3ccccc3)CC2)[C@@H](c2ccccc2)C1,CCR5,CCR5-E283A,-,-,-,IC50,radiometric,>10 µM
Nc1nc(=S)c2[nH]cnc2[nH]1,Phosphoribosyltransferase,-,RH,Toxoplasma gondii,-,Ki,-,6 µM
O=C(CN1C(=O)SC(=Cc2ccccc2OC(F)(F)F)C1=O)N1CCN(c2ccccc2)CC1,Falcipain-2,-,-,Plasmodium falciparum,-,IC50,fluorescence,35.28 µM
NC(=S)NS(=O)(=O)c1ccc(N)cc1,DHPS,-,-,Pneumocystis carinii,-,IC50,-,0.022 µM

An empty or dashed field is not shown. Fold resistance has wild type as its base. Percent inhibition refers to the dose given; in toxicity tests it is the harm to the cells. ICn is the concentration giving n% inhibition.